The values below come from paper PMC11334520, “In vitro higher-order oligomeric assembly of the respiratory syncytial virus M2-1 protein with longer RNAs”.

Data set [1] addresses T1, M2-1 (human respiratory syncytial virus (strain A2)) (UniProt P04545).
T1 sequence (looked up): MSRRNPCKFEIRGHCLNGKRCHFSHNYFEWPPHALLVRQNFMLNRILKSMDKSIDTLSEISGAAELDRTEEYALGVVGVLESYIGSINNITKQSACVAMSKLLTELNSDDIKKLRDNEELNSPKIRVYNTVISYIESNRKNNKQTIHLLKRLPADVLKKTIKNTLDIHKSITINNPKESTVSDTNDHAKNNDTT
The experiment in a line: SEC. As to conditions: excess RNA; SEC: Superdex 200 Increase 10/300, buffer not given; recombinant protein; residues 1-194; protein details: N-terminal His6-GFP, cleaved with TEV.

Data set [2] deals with T1, M2-1 (human respiratory syncytial virus (strain A2)). The experiment in a line: EMSA. The note with it: EDTA gradient, complex unchanged; EMSA: 20 mM HEPES pH 7.5, 200 mM NaCl, 2 mM TCEP, 5% glycerol, room temperature 1 h, 4% native PAGE, SYBR Gold; recombinant protein; residues 1-194; protein details: N-terminal His6-GFP, cleaved with TEV. For orientation: A gel shift assay detects complexes by their altered migration in electrophoresis.

Data set [3] shares this target. The experiment in a line: negative stain EM. As to conditions: M2-1:RNA 15.1, 1.8, 0.4, particles about 140 A; SEC: Superdex 200 Increase 10/300, buffer not given; recombinant protein; residues 1-194; protein details: N-terminal His6-GFP, cleaved with TEV.

Construct, isoform or probe ends are uncertain for at least one entry. At least one verdict was read from the data and is not stated in words by the source. Protein sequences can lack the tags named with them.

AAAAAAAAAAAAAAA [Poly15A]: the binding result in data set [1] was “binds”.
Regarding AAAAAAAAAAAAAAAAAAAAAAAA [Poly24A], the binding result in data set [2] and in data set [3] was “binds” throughout.
